Compound potency records, mixed from different reports. Data source: NIAID ChemDB in PubChem.

All rows: whole-cell or culture tests; species: Mycobacterium tuberculosis

A number after MIC or MFC names an inhibition level or a share of isolates.

structure	conditions	cells	measure	strain	method	dose	changes	value
N#Cc1cc(SCc2cccc(F)c2)ccn1	-	-	MIC	CNCTC MY331/88	-	-	-	61.66 µM
COc1ccc(CCNC(=O)c2ccc([N+](=O)[O-])s2)cc1	-	-	MIC90	H37Rv	-	-	-	200 µg/mL
CC(C)(C)OC(=O)N[C@@H](CO)C(=O)N/N=C/c1ccc(O)cc1O	-	-	MIC	H37Rv	resazurin	-	-	>100 µg/mL
NC[C@H]1O[C@H](O[C@H]2[C@H](O)[C@@H](O[C@H]3O[C@H](CO)[C@@H](O)[C@H](N)[C@H]3O)[C@H](N)C[C@@H]2N)[C@H](O)[C@@H](O)[C@@H]1O	-	-	MIC	607	-	-	-	1–2 µg/mL
N#Cc1cc(SCc2ccc(Cl)c(Cl)c2)ccn1	-	-	MIC	CNCTC MY331/88	-	-	-	61.66 µM
CCN(CC)c1ccc2nc3ccc(N(CC)CC)cc3[n+](-c3ccccc3)c2c1.[Cl-]	-	VERO	MIC	H37Rv	BACTEC	-	-	0.05 µg/mL
COc1cc(-c2csc(-n3cccc3)n2)cc(OC)c1OC	-	-	MIC	H37Rv	resazurin	-	-	50 µg/mL
CN[C@@H]1[C@H](O[C@H]2[C@H](O[C@H]3[C@H](O)[C@@H](O)[C@H](N=C(N)N)[C@@H](O)[C@@H]3N=C(N)N)O[C@@H](C)[C@]2(O)C=O)O[C@@H](CO)[C@H](O)[C@H]1O	-	-	MIC	05001 (H37RV)	-	-	-	6.25 µg/mL
CCOC(=O)Cc1csc(NC(=O)C(SC(=S)N2CCCCC2C)c2ccccc2)n1	-	-	MIC	H37Rv	-	-	-	>156 µg/mL
CC(=O)NC[C@H]1CN(c2ccc(N3CCOCC3)c(F)c2)C(=O)O1	-	-	MIC	H37Rv	-	-	-	0.5 µg/mL
Cc1ccc(-c2ccc(Cl)cc2)n1C1CCCCC1	-	-	MIC	103471	-	-	-	8 µg/mL
CCOC(=O)Cc1csc(NC(=O)CSC(=S)N2CCCCC2)n1	-	-	MIC	H37Rv	-	-	-	>156 µg/mL
NC(=S)c1cc(SCc2cccc(Br)c2)ccn1	-	-	MIC	CNCTC MY331/88	-	-	-	7.94 µM
COc1ccc(C2=Nn3c(nc4sc5c(c4c3=O)CCCC5)SC2)cc1	-	-	inhibition	H37Rv	resazurin	6.25 µg/mL	-	3%
Cc1c(CN2CCN(C)CC2)cc(-c2ccc(Cl)cc2)n1-c1ccc(Cl)cc1	-	-	MIC	103471	-	-	-	0.7 µg/mL
C[C@@H]1[C@H]2C[C@@H](C[C@H]1NCCNC(c1ccccc1)c1ccccc1)C2(C)C	-	-	MIC	-	-	-	-	12.5 µM
CC1COc2c(N3CCN(C)CC3)c(F)cc3c(=O)c(C(=O)O)cn1c23	-	-	MIC90	24 strains (drug-susceptible)	-	-	-	1 µg/mL
Cc1ccc(CSC(=S)NNc2ccccc2)cc1C	-	-	MIC	H37Rv	BACTEC	-	-	≥128 µg/mL
COc1ccc(-c2csc(-n3cccc3)n2)cc1	-	-	MIC	H37Rv	resazurin	-	-	12.5 µg/mL
CN(C(=O)c1ccc([N+](=O)[O-])o1)c1ccccc1	-	-	MIC90	H37Rv	-	-	-	6.25 µg/mL
Cc1ccc(CSc2ccnc(C(N)=S)c2)cc1	-	-	MIC	CNCTC MY331/88	-	-	-	15.85 µM
CC(=O)OC[C@@H](OC(C)=O)[C@H](/C=C/CC[N+](=O)[O-])OC(C)=O	-	-	inhibition	H37Rv	agar	12.5 µg/mL	-	100%
N#Cc1cccc(/C=N/NC(=O)C2COC(=O)N2)c1	-	-	MIC	H37Rv	resazurin	-	-	>100 µg/mL
COc1ccc(CNCCNCCC2=CCCCC2)c(OC)c1	-	-	MIC	-	-	-	-	50 µM
CCn1cc(C(=O)O)c(=O)c2cc(F)c(-n3cccc3)cc21	pH 6.8	-	inhibition	-	-	3 µg/mL	-	100%
CC(=O)NC(C)CCC[C@H](OC(C)=O)[C@@H](COC(C)=O)OC(C)=O	-	-	inhibition	H37Rv	agar	25 µg/mL	-	100%
O=CC1N=C(Cc2ccccc2)OC1=O	-	-	inhibition	H37Rv	BACTEC	12.5 µg/mL	-	-9%
CC(=O)OC[C@@H](OC(C)=O)[C@H](/C=C/C=C(\C)[N+](=O)[O-])OC(C)=O	-	-	inhibition	H37Rv	agar	25 µg/mL	-	inactive
CCc1nc2ccc(Cl)cn2c1C(=O)NCc1ccc(N2CCC(c3ccc(OC(F)(F)F)cc3)CC2)cc1	-	-	MIC50	H37Rv	resazurin	-	cydABcomp	0.0014 µM
CN(C)c1ccc(-c2nnc3c(c(=O)n(C)c(=O)n3C)[n+]2[O-])cc1	-	-	inhibition	H37Rv	BACTEC	12.5 µg/mL	-	98%
NC(=S)c1cc(SCc2ccc([N+](=O)[O-])cc2[N+](=O)[O-])ccn1	-	-	MIC	CNCTC MY331/88	-	-	-	7.94 µM
CCOc1ccccc1CNCCNC(C)c1cccc2ccccc12	-	-	MIC	-	-	-	-	50 µM
Cc1c(CN2CCOCC2)c(CN2CCOCC2)c(-c2ccc(Cl)cc2)n1Cc1ccccc1	-	-	MIC	103471	-	-	-	16 µg/mL
CC(=O)Nc1ccc(OCC(=O)N/N=C/c2ccccc2)cc1	-	-	EC50	H37Rv	-	-	-	>12.5 µg/mL
CC1(C)S[C@@H]2[C@H](NC(=O)[C@H](N)c3ccccc3)C(=O)N2[C@H]1C(=O)O	-	-	MIC	DLV	-	-	-	>92 µM
CS(=O)c1nnc(-c2ccc([N+](=O)[O-])o2)s1	-	-	inhibition	H37Rv	-	6.25 µg/mL	-	100%
CN(C)c1ccc(CC(=O)c2ccc([N+](=O)[O-])o2)cc1	-	-	MIC90	H37Rv	-	-	-	0.1 µg/mL
CC(=O)OC[C@@H](OC(C)=O)[C@H](/C=C/C(O)C[N+](=O)[O-])OC(C)=O	-	-	inhibition	H37Rv	agar	25 µg/mL	-	inactive
COc1ccc(OC)c(CCNCCNCCC2=CCCCC2)c1	-	-	MIC	-	-	-	-	12.5 µM
Cc1ccc(C)[nH]1	-	-	MIC	H37Rv	-	-	-	<12.5 µg/mL
CCOC(=O)Cc1csc(NC(=O)CSC(=S)N2CCC(C)CC2)n1	-	-	MIC	H37Rv	-	-	-	>156 µg/mL
CCCCCCn1c(C)ccc1C	-	-	MIC	H37Rv	-	-	-	<12.5 µg/mL
CC(=O)N(C)c1ccc(Nc2ccnc3ccc4nn(C)nc4c23)cc1	-	-	MIC bound	H37Rv	resazurin	-	-	>6.25 µg/mL
COc1ccc(C2SCC(=O)N2NC(=O)COc2ccc(NC(C)=O)cc2)cc1OC	-	-	inhibition	H37Rv	-	12.5 µg/mL	-	0%
O=C(N[C@@H](CO)C(=O)N/N=C/c1ccc(O)cc1O)OCc1ccccc1	-	-	MIC	H37Rv	resazurin	-	-	100 µg/mL
OCc1ccccc1Sc1ccccc1CNCCNCCc1ccc(F)cc1	-	-	MIC	-	-	-	-	50 µM
Cc1ccc(CSc2ccnc(C#N)c2)cc1	-	-	MIC	CNCTC MY331/88	-	-	-	61.66 µM
NC(=O)c1cnccn1	-	-	MIC	ATCC 27294 niacin-positive	-	-	-	32 µg/mL
CC(C)(C)OC(=O)N[C@@H](CO)C(=O)N/N=C/c1cc(O)ccc1O	-	-	MIC	H37Rv	resazurin	-	-	>100 µg/mL
NC(=S)c1cc(SCc2cccc([N+](=O)[O-])c2)ccn1	-	-	MIC	CNCTC MY331/88	-	-	-	3.98 µM
O=C1C2Nc3ccccc3N=C2OC1c1ccc(Cl)c(Cl)c1	-	-	MIC bound	H37Rv	BACTEC	-	-	>12.5 µg/mL
C[C@H]1COc2c(N3CCN(C)CC3)c(F)cc3c(=O)c(C(=O)O)cn1c23	-	-	MIC	3S	-	-	-	0.5 µg/mL
COc1ccc2c(c1)n([O-])c1cc(C#N)ccc1[n+]2=O	-	-	MIC	H37Rv	BACTEC	-	-	≥12.5 µg/mL
N#Cc1ccc(/C=N/NC(=O)[C@H](CO)NC(=O)OCc2ccccc2)cc1	-	-	MIC	H37Rv	resazurin	-	-	>100 µg/mL
C[C@H]1[C@H](NC(=O)/C(=N\OC(C)(C)C(=O)O)c2csc(N)n2)C(=O)N1S(=O)(=O)O	-	-	MIC50	24 strains (drug-susceptible)	-	-	-	>64 µg/mL
Cc1ccc(C)n1-c1nc(-c2cccc([N+](=O)[O-])c2)cs1	-	-	MIC	H37Rv	resazurin	-	-	0.8 µg/mL
CC(C)C[C@@H](CO)NCCNCCc1ccc(Cl)cc1Cl	-	-	MIC	-	-	-	-	25 µM
Cc1[nH]c(-c2ccc(Cl)cc2)cc1CN1CCN(C)CC1	-	-	MIC	H37Rv	-	-	-	<12.5 µg/mL
NC(=S)N/N=C/c1ccc2oc3ccccc3c2c1	-	-	MIC	TAC-R	-	-	-	>25 µg/mL
COc1cccc(CNC(=O)c2ccc([N+](=O)[O-])o2)c1OC	-	-	MIC90	H37Rv	-	-	-	0.8 µg/mL
[Cl][Sn]([Cl])([c]1cccs1)[c]1cccs1.c1cnc2c(c1)ccc1cccnc12	-	VERO	MIC	H37Rv	BACTEC	-	-	12.5 µg/mL
Cc1c(CN2CCN(C)CC2)cc(-c2ccc(Cl)cc2)n1C1CCCCC1	-	-	EC50	H37Rv	-	-	-	<12.5 µg/mL
CCOC(=O)Cc1csc(NC(=O)CSC(=S)N2CCCCC2C)n1	-	-	MIC	H37Rv	-	-	-	>156 µg/mL
O=C(N[C@@H](CO)C(=O)N/N=C/c1ccccc1[N+](=O)[O-])OCc1ccccc1	-	-	MIC	H37Rv	resazurin	-	-	>100 µg/mL
CC(C)(CO)NCCNCc1ccccc1	-	-	MIC	-	-	-	-	50 µM
NNC(=O)C1CC2=C(C1)CC(C(=O)NN)C2	-	-	MIC bound	H37Rv	BACTEC	-	-	>12.5 µg/mL
Cc1ccc(C)c(CS(=O)(=O)c2nnc(-c3ccc([N+](=O)[O-])o3)s2)c1	-	-	inhibition	H37Rv	-	6.25 µg/mL	-	35%
CC(Nc1ccc2ccccc2c1)C(=O)NN	-	-	inhibition	H37Rv	-	1 µg/mL	-	100%
Cc1c(O)ccc2c(O)c(NC(=O)c3ccc4c(c3)CCC(C)(C)O4)c(=O)oc12	-	-	inhibition	H37Rv	BACTEC	12.5 µg/mL	-	10%
CCOC(=O)Cc1csc(NC(=O)C(SC(=S)NNC(=O)c2ccncc2)c2ccccc2)n1	-	-	MIC	H37Rv	-	-	-	>156 µg/mL
COc1ccc(CSc2nnc(-c3ccc([N+](=O)[O-])o3)s2)cc1	-	-	inhibition	H37Rv	-	6.25 µg/mL	-	0%
CC1=NN(C(=O)c2ccncc2)C(=O)C1N=Nc1ccc(C)c([N+](=O)[O-])c1	-	-	inhibition	H37Rv	BACTEC	12.8 µg/mL	-	21%
CC(=O)Nc1ccc(OCC(=O)NN2C(=O)C(C)SC2c2ccc(N(C)C)cc2)cc1	-	-	inhibition	H37Rv	-	12.5 µg/mL	-	0%
Oc1ccc2c(c1O)/C(=C/C=NC[C@@]1(O)OC[C@@H](O)[C@H](O)[C@@H]1O)C=N2	-	-	MIC bound	H37Rv	resazurin	-	-	>6.25 µg/mL
COc1ccc(CC(=O)c2cc([N+](=O)[O-])cn2C)c(OC)c1	-	-	MIC90	H37Rv	-	-	-	>200 µg/mL
ClCc1ccc2ccc3ccc(CCl)nc3c2n1	-	-	inhibition	H37Rv	BACTEC	12.5 µg/mL	-	88%
CCCCC(CC)CN1CN(CC(CC)CCCC)CC(C)(NCCN[C@@H](COC)[C@@H](O)c2ccccc2)C1	-	-	MIC	-	-	-	-	25 µM
COc1ccc2cc(NCC(=O)NN)ccc2c1	-	-	EC50	Drug-resistant	-	-	-	5 µg/mL
CCc1cc(C(N)=S)ccn1	-	-	MIC	1620-6	-	-	-	1.25 µg/mL
CC(C)(C)OC(=O)N[C@@H](CO)C(=O)N/N=C/c1cccc(O)c1O	-	-	MIC	H37Rv	resazurin	-	-	>100 µg/mL
COc1ccc2ccc3oc([N+](=O)[O-])cc3c2c1	-	-	MIC	H37Rv	BACTEC	-	-	0.39 µg/mL
COc1ccccc1CCNCCNCCc1ccc(OC)c(OC)c1	-	-	MIC	-	-	-	-	50 µM
CC(=O)Nc1ccc(OCC(=O)N/N=C/c2ccccc2[N+](=O)[O-])cc1	-	-	EC50	H37Rv	-	-	-	>12.5 µg/mL
CSc1nnc(-c2ccc([N+](=O)[O-])o2)s1	-	-	MIC	H37Rv	-	-	-	6.25 µg/mL
Cc1cc(CN2CCN(C)CC2)c(C)n1Cc1ccccc1	-	-	MIC	H37Rv	-	-	-	<12.5 µg/mL
CCOC(=O)Cc1csc(NC(=O)C(SC(=S)N(C)C)c2ccccc2)n1	-	-	MIC	H37Rv	-	-	-	>156 µg/mL
COC(=O)c1nc(N)nc(C(=O)OC)c1C(=O)c1ccco1	-	-	MIC bound	H37Rv	BACTEC	-	-	>12.5 µg/mL
CC[C@@H](CO)NCCN[C@@H](CC)CO	-	-	MIC	05001 (H37RV)	-	-	-	1.6 µg/mL
O=C(NN1C(=O)c2ccc([N+](=O)[O-])cc2C1=O)c1ccc(-n2cccc2)cc1	-	-	MIC	H37Rv	resazurin	-	-	3.125 µg/mL
CN=C(NC)c1ccc(NC(=O)/C=C/C(=O)Nc2ccc(C(=NC)NC)cc2)cc1	-	-	inhibition	H37Rv	resazurin	6.25 µg/mL	-	47%
CCn1cc(C(=O)O)c(=O)c2cc(F)c(N3CCNC(C)C3)c(F)c21	-	-	MIC90	79 strains (drug-susceptible)	-	-	-	1.02 µg/mL
C[N+](C)(C)CC(=O)N/N=C1/c2ccccc2NC1[O-]	-	-	inhibition	H37Rv	BACTEC	12.5 µg/mL	-	16%
CC(=O)NCC(CC[C@H](OC(C)=O)[C@@H](COC(C)=O)OC(C)=O)OC(C)=O	-	-	inhibition	H37Rv	agar	25 µg/mL	-	inactive
Cc1ccc(NC(=O)C(Cl)(Cl)Cl)cc1[N+](=O)[O-]	-	-	inhibition	H37Rv	BACTEC	12.5 µg/mL	-	0%
NC(=S)c1cc(SCc2cc([N+](=O)[O-])cc([N+](=O)[O-])c2)ccn1	-	-	MIC	CNCTC MY331/88	-	-	-	3.98 µM

a–b is a range or a potency band. Inhibition is in % at the dose shown (toxicity tests: loss of growth or viability). MIC bound comes from a single tested concentration. An empty or dashed field is not shown. For "inactive" no cut-off is given. Neighbouring rows are from separate reports. ECn is the concentration giving n% inhibition of infection, replication or growth.